{"source": "paper PMC5577263", "about": "(2017)", "target": "recombinant mouse α-synuclein amyloid fibrils (mouse, UniProt O55042 1-140)", "note": "Several values for one entry are separate records, joined by “and”; a condition that tells them apart may be missing. Equal values may be shown once.", "data": [{"binder": "recombinant full-length mouse PrP MoPrP(23-231) (natural protein) not shown", "values": [{"measurement": "koff", "value": "0.0041 s⁻¹ and 0.00047 s⁻¹"}]}]}
